Test results as given in patent publication US20200024330A1.
Where a chain is given by its changes, count along the chain named.

B1: 5141_B17 (PGT-126) (antibody, V domains shown)
VH: QPQLQESGPGLVEASETLSLTCTVSGDSTAACDYFWGWVRQPPGKGLEWIGGLSHCAGYYNTGWTYHNPSLKSRLTISLDTPKNQVFLKLNSVTAADTAIYYCARFDGEVLVYHDWPKPAWVDLWGRGTLVTVSS
VL: QSALTQPPSASGSPGQSISISCTGTSNRFVSWYQQHPGKAPKLVIYGVNKRPSGVPDRFSGSKSGNTASLTVSGLQTDDEAVYYCSSLVGNWDVIFGGGTKLTVL
B2: 5145_B14 (PGT-127) (antibody, V domains shown)
VH: QPQLQESGPGLVEASETLSLTCTVSGDSTGRCNYFWGWVRQPPGKGLEWIGSLSHCRSYYNTDWTYHNPSLKSRLTISLDTPKNQVFLRLTSVTAADTATYYCARFGGEVLVYRDWPKPAWVDLWGRGTLVVTVSS
VL: B1 VL with S19T, R28N, H36Y, G47E, N66S, T77A, A81G
B3: 4877_D15 (PGT-122) (antibody, V domains shown)
VH: QVHLQESGPGLVKPSETLSLTCNVSGTLVRDNYWSWIRQPLGKQPEWIGYVHDSGDTNYNPSLKSRVHLSLDKSKNLVSLRLTGVTAADSAIYYCATTKHGRRIYGVVAFKEWFTYFYMDVWGKGTSVTVSS
VL: TFVSVAPGQTARITCGEESLGSRSVIWYQQRPGQAPSLIIYNNNDRPSGIPDRFSGSPGSTFGTTATLTITSVEAGDEADYYCHIWDSRRPTNWVFGEGTTLIVL
B4: 4858_P08 (PGT-123) (antibody, V domains shown)
VH: QLHLQESGPGLVKPPETLSLTCSVSGASINDAYWSWIRQSPGKRPEWVGYVHHSGDTNYNPSLKRRVTFSLDTAKNEVSLKLVDLTAADSATYFCARALHGKRIYGIVALGELFTYFYMDVWGKGTAVTVSS
VL: SSMSVSPGETAKISCGKESIGSRAVQWYQQKPGQPPSLIIYNNQDRPAGVPERFSASPDFRPGTTATLTITNVDAEDEADYYCHIYDARGGTNWVFDRGTTLTVL
B5: 4838_L06 (PGT-121) (antibody, V domains shown)
VH: QMQLQESGPGLVKPSETLSLTCSVSGASISDSYWSWIRRSPGKGLEWIGYVHKSGDTNYSPSLKSRVNLSLDTSKNQVSLSLVAATAADSGKYYCARTLHGRRIYGIVAFNEWFTYFYMDVWGNGTQVTVSS
VL: SDISVAPGETARISCGEKSLGSRAVQWYQHRAGQAPSLIIYNNQDRPSGIPERFSGSPDSPFGTTATLTITSVEAGDEADYYCHIWDSRVPTKWVFGGGTTLTVL
B6: 5147_N06 (PGT-130) (antibody, V domains shown)
VH: QVQLQESGPGLVKPAETLSLTCSVSGESINTGHYYWGWVRQVPGKGLEWIGHIHYTTAVLHNPSLKSRLTIKIYTLRNQITLRLSNVTAADTAVYHCVRSGGDILYYYEWQKPHWFSPWGPGIHVTVSS
VL: QSALTQPPSASGSLGQSVTISCNGTSSDIGGWNFVSWYQQFPGRAPRLIIFEVNKRPSGVPGRFSGSKSGNSASLTVSGLQSDDEGQYFCSSLFGRWDVVFGGGTKLTVL
B7: 5345_I01 (PGT-137) (antibody, V domains shown)
VH: EVHLEESGPGLVRPSETLSLTCTASGGSIRGGEWGDSDYHWGWVRHSPEKGLEWIGSIHWRGTTHYNAPFRGRGRLSIDLSRNQFSLRLTSVTAEDTAVYYCVKHKYHDIVMVVPIAGWFDPWGQGLQVTVSS
VL: EIMMTQSPAILSVSPGDRATLSCRASQSVKNNLAWYQKRPGQAPRLLIFDTSSRASGIPARFSGGGSGTEFTLTVNSMQSEDFATYYCQQYEEWPRTFGQGTKVEIK

The binders below were run against 162-pseudovirus panel representing all major circulating HIV-1 subtypes (assay: cell-based or functional assay).

| Binder | Median IC50 (µg/ml) against viruses neutralized with an IC50 <50 µg/ml [µg/mL] | Percent viruses neutralized, IC50 <0.1 µg/ml [%] | Percent viruses neutralized, IC50 <1 µg/ml [%] | Percent viruses neutralized, IC50 <50 µg/ml [%] |
| --- | --- | --- | --- | --- |
| B1 | 0.04 | 40 | 50 | 60 |
| B2 | 0.08 | 27 | 37 | 50 |
| B3 | 0.05 | 36 | 48 | 65 |
| B4 | 0.03 | 40 | 54 | 67 |
| B5 | 0.03 | 44 | 57 | 70 |
| B6 | 0.16 | 23 | 35 | 52 |
| B7 | 3.46 | 4 | 8 | 22 |

These binders were tested against HIV-1 clade C pseudoviruses (Env) of the cross-clade 162-pseudovirus panel, n=27 (assay: cell-based or functional assay).

| Binder | Percent viruses neutralized with an IC50 <50 µg/ml [%] | Median IC50 (µg/ml) against viruses neutralized with an IC50 <50 µg/ml [µg/mL] |
| --- | --- | --- |
| B1 | 48 | – |
| B2 | 38 | – |
| B3 | 59 | – |
| B4 | 63 | – |
| B5 | 67 | – |
| B7 | – | 1.32 |

The binders below were run against HIV-1 Env of the clade B pseudoviruses of the cross-clade 162-pseudovirus panel (n=31) (assay: cell-based or functional assay).

| Binder | Median IC50 (µg/ml) against viruses neutralized with an IC50 <50 µg/ml [µg/mL] |
| --- | --- |
| B1 | 0.17 |
| B2 | 0.36 |
| B6 | 0.77 |

Each binder was assayed against HIV-1 clade D pseudoviruses (Env) of the cross-clade 162-pseudovirus panel, n=25 (assay: cell-based or functional assay).

| Binder | Percent viruses neutralized with an IC50 <50 µg/ml [%] | Median IC50 (µg/ml) against viruses neutralized with an IC50 <50 µg/ml [µg/mL] |
| --- | --- | --- |
| B1 | 36 | – |
| B2 | 28 | – |
| B3 | 32 | – |
| B4 | 32 | – |
| B5 | 36 | – |
| B7 | – | 16.1 |

Each binder was assayed against HIV-1 Env of the clade A pseudoviruses of the cross-clade 162-pseudovirus panel (n=26) (assay: cell-based or functional assay).

| Binder | Median IC50 (µg/ml) against viruses neutralized with an IC50 <50 µg/ml [µg/mL] |
| --- | --- |
| B2 | 0.16 |
| B3 | 0.33 |
| B6 | 4.99 |

The binders below were run against HIV-1 clade B pseudoviruses (Env) of the cross-clade 162-pseudovirus panel, n=31 (assay: cell-based or functional assay).

| Binder | Percent viruses neutralized with an IC50 <50 µg/ml [%] |
| --- | --- |
| B3 | 77 |
| B4 | 77 |
| B5 | 81 |

The binders below were run against HIV-1 Env of all pseudoviruses of the cross-clade 162-pseudovirus panel (n=162) (assay: cell-based or functional assay).

| Binder | Median IC50 (µg/ml) against all viruses [µg/mL] |
| --- | --- |
| B7 | 50 |

Each binder was assayed against HIV-1 clade G pseudoviruses (Env) of the cross-clade 162-pseudovirus panel, n=15 (assay: cell-based or functional assay).

| Binder | Percent viruses neutralized with an IC50 <50 µg/ml [%] | Median IC50 (µg/ml) against viruses neutralized with an IC50 <50 µg/ml [µg/mL] |
| --- | --- | --- |
| B1 | 20 | – |
| B2 | 20 | – |
| B4 | 47 | – |
| B7 | – | 1.45 |

The binders below were run against HIV-1 Env of the clade D pseudoviruses of the cross-clade 162-pseudovirus panel (n=25) (assay: cell-based or functional assay).

| Binder | Median IC50 (µg/ml) against viruses neutralized with an IC50 <50 µg/ml [µg/mL] |
| --- | --- |
| B1 | 0.33 |
| B2 | 0.18 |
| B3 | 0.11 |
| B4 | 0.13 |
| B5 | 0.12 |
| B6 | 3.18 |

Each binder was assayed against HIV-1 Env of the clade F pseudoviruses of the cross-clade 162-pseudovirus panel (n=15) (assay: cell-based or functional assay).

| Binder | Median IC50 (µg/ml) against viruses neutralized with an IC50 <50 µg/ml [µg/mL] |
| --- | --- |
| B1 | 1 |
| B2 | 0.86 |
| B3 | 5.53 |
| B4 | 0.74 |
| B6 | 4.84 |

These binders were tested against HIV-1 clade A pseudoviruses (Env) of the cross-clade 162-pseudovirus panel, n=26 (assay: cell-based or functional assay).

| Binder | Percent viruses neutralized with an IC50 <50 µg/ml [%] | Median IC50 (µg/ml) against viruses neutralized with an IC50 <50 µg/ml [µg/mL] |
| --- | --- | --- |
| B1 | 50 | – |
| B2 | 46 | – |
| B3 | 50 | – |
| B4 | 50 | – |
| B5 | 50 | – |
| B7 | – | 2.54 |

The binders below were run against All HIV-1 pseudoviruses (Env) of the cross-clade 162-pseudovirus panel, n=162 (assay: cell-based or functional assay).

| Binder | Median IC50 (µg/ml) against viruses neutralized with an IC50 <50 µg/ml [µg/mL] |
| --- | --- |
| B1 | 0.17 |
| B2 | 0.46 |
| B3 | 0.26 |
| B4 | 0.18 |
| B7 | 2.1 |

These binders were tested against HIV-1 Env of the clade AG pseudoviruses of the cross-clade 162-pseudovirus panel (n=10) (assay: cell-based or functional assay).

| Binder | Median IC50 (µg/ml) against viruses neutralized with an IC50 <50 µg/ml [µg/mL] |
| --- | --- |
| B2 | 0.24 |
| B3 | 0.97 |
| B4 | 2.27 |
| B5 | 0.56 |

Each binder was assayed against HIV-1 Env of the clade AE pseudoviruses of the cross-clade 162-pseudovirus panel (n=10) (assay: cell-based or functional assay).

| Binder | Median IC50 (µg/ml) against viruses neutralized with an IC50 <50 µg/ml [µg/mL] |
| --- | --- |
| B1 | 19.6 |
| B6 | 0.08 |

Each binder was assayed against HIV-1 Env of the clade G pseudoviruses of the cross-clade 162-pseudovirus panel (n=15) (assay: cell-based or functional assay).

| Binder | Median IC50 (µg/ml) against viruses neutralized with an IC50 <50 µg/ml [µg/mL] |
| --- | --- |
| B1 | 0.17 |
| B2 | 0.67 |
| B6 | 28.1 |

Each binder was assayed against HIV-1 clade F pseudoviruses (Env) of the cross-clade 162-pseudovirus panel, n=15 (assay: cell-based or functional assay).

| Binder | Percent viruses neutralized with an IC50 <50 µg/ml [%] | Median IC50 (µg/ml) against viruses neutralized with an IC50 <50 µg/ml [µg/mL] |
| --- | --- | --- |
| B1 | 27 | – |
| B2 | 13 | – |
| B3 | 73 | – |
| B4 | 53 | – |
| B7 | – | 21.1 |

These binders were tested against HIV-1 pseudovirus panel of Table 52 (assay: cell-based or functional assay).

| Binder | median IC50, neutralizing activity over the panel [µg/mL] |
| --- | --- |
| B1 | 0.02 |
| B3 | 0.08 |
| B4 | 0.04 |
| B5 | 0.04 |
| B6 | 0.03 |

What follows are binders tested against HIV-1 Env of the clade C pseudoviruses of the cross-clade 162-pseudovirus panel (n=27) (assay: cell-based or functional assay).

| Binder | Median IC50 (µg/ml) against viruses neutralized with an IC50 <50 µg/ml [µg/mL] |
| --- | --- |
| B1 | 0.96 |
| B2 | 7.99 |
| B6 | 2.67 |
